The source of these data is PMC12443476 (eLife, 2025).

Experiment [1] deals with Orf9b Omicron variant (P10S, ∆27–29), refolded (SARS-CoV-2) (UniProt P0DTD2). In words: fluorescence polarisation. On the technique in general: Polarisation of emitted light reports the rotation of a fluorescent probe.
The target is the same in experiment [2]. In words: SEC. (In general: SEC sorts molecules by how far they enter the pores of the column.)
Experiment [3] concerns the target Orf9b Lambda variant (P10S), refolded (SARS-CoV-2) (UniProt P0DTD2). Briefly: fluorescence polarisation.
Experiment [4] has the same target. Briefly: SEC.

The term Kd denotes the constant that tells how readily two partners part at equilibrium. In general, koff refers to the first-order rate constant of dissociation. Read a low koff as a long-lived complex. One may read the stoichiometry N as the number of molecules, sites or subunits per partner or assembly.

In experiment [1], “Orf9b Omicron variant (P10S, ∆27–29), refolded (from UniProt P0DTD2 1-97) (natural protein)” showed a Kd of 3100 nM and a koff of 0.25 s⁻¹. In experiment [2], the stoichiometry N turned out to be 2.

In experiment [3], “Orf9b Lambda variant (P10S), refolded (from UniProt P0DTD2 1-97) (natural protein)” came in with a Kd of 250 nM and a koff of 0.02 s⁻¹. Moreover, in experiment [4], the stoichiometry N worked out at 2.
